Test results as given in ChEMBL document CHEMBL2401726, “Expanding chemical diversity of conotoxins: peptoid-peptide chimeras of the sodium channel blocker μ-KIIIA and its selenopeptide analogues” (2013).

Species on record: Rattus norvegicus
Assay: Ratio of Kd for rat brain voltage-gated sodium channel Nav1.2 F385C mutant to Kd for rat brain voltage-gated sodium channel Nav1.2

N=C(N)NCCC[C@@H]1NC(=O)[C@H](CO)NC(=O)[C@H](Cc2cnc[nH]2)NC(=O)[C@H](CC(=O)O)NC(=O)[C@H](CCCNC(=N)N)NC(=O)[C@@H]2CSSC[C@H](N)C(=O)N[C@H]3CSSC[C@H](NC1=O)C(=O)N[C@H](C(N)=O)CSSC[C@H](NC(=O)[C@H](CC(N)=O)NC3=O)C(=O)N[C@@H](CO)C(=O)N[C@@H](CO)C(=O)N[C@@H](CCCCN)C(=O)N[C@@H](Cc1c[nH]c3ccccc13)C(=O)N2
Ratio: 2
